The entries are a selection whose mix differs from that of the whole data set. Activity calls are given as the source filed them. Rule as the data show it: active = z-score below about -3; inactive = the rest.
assay: inhibitors of measles virus growth in cells, primary screen, measles RdRp inhibitor project, cell-based, single point, HTS (AID 745); conditions: infected Vero cells, GFP fluorescence, 64 h; stronger effect = lower value

Structure (SMILES)	z-score
CC1CN(C)C(C)CC1Nc1ccccc1 (stereo unspecified)	inactive: 0.23
